## PSTVd stem 15 mutant pool in Nicotiana benthamiana

Values reported by Wu et al. 2024 (doi:10.1371/journal.ppat.1012142).

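Three N. benthamiana plants were inoculated with the whole mutant pool. Progeny were sequenced from the inoculated region (day 5), the margin of the inoculated leaf (day 10) and systemic leaves (day 12).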

Region: stem 15 of PSTVd (intermediate strain), upper and lower strand joined, each 5' to 3', the first 9 letters being the upper strand. Wild type: CUGGAGCGAUCGCUUCGG. Varied positions (N): CUGGAGCGAUNGNNUNNG.

Numbers give reads per thousand; 0 = not seen among the reads, higher = more abundant.
Each value is the mean of three plants.
"Pool" is the share in the plasmid pool used as inoculum, on the same scale.
The inoculated region was read from the minus strand, the other sites from the plus strand.
With 36,693-63,082 reads a sample, very low values are single reads.

sequence	pool	inoculated region	leaf margin	systemic leaves
CUGGAGCGAUCGGAUUGG	0.905	0.313	0.0419	0
CUGGAGCGAUAGGAUACG	0.743	0.309	0.0251	0
CUGGAGCGAUCGAGUCCG	2.13	0.721	0.0519	0.00664
CUGGAGCGAUGGUUUCAG	0.792	0.312	0.0563	0
CUGGAGCGAUGGAGUUCG	0.970	0.291	0.0604	0
CUGGAGCGAUUGCCUGAG	0.954	1.40	0.539	0.244
CUGGAGCGAGCGCUUCGG	0.0646	0.177	0.107	0.0958
CUGGAGCGAUGGGAUUAG	0.970	0.279	0.0334	0
CUGGAGCGAUUGUCUCGG	0.873	1.57	0.522	0
CUGGAGCGAUCGCUUGAG	0.679	0.364	0.0191	0
CUGGAGCGAUAGAGUCGG	0.840	0.321	0.0397	0
CUGGAGCGAUGGUCUGUG	0.873	0.374	0.0510	0
CUGGAGCGAUCGUCUAGG	0.695	0.321	0	0
CUGGAGCGAUGGCCUCGG	0.986	0.259	0.0340	0
CUGGAGCGAUUGCCUGUG	0.889	0.292	0.0388	0
CUGGAGCGAUGGAAUUUG	0.889	0.347	0.0472	0
CUGGAGCGAUCGGGUUCG	0.711	0.211	0.0213	0
CUGGAGCGAUUGGUUUUG	2.36	1.50	0.0541	0.0133
CUGGAGCGAUCGCCUUCG	0.776	0.273	0.0494	0
CUGGAGCGAUGGCCUGUG	0.873	0.254	0.0282	0
CUGGAGCGAUUGGGUCAG	0.873	0.371	0.0350	0
CUGGAGCGAUGGCUUUCG	1.05	0.371	0.0397	0
CUGGAGCGAUGGACUUGG	0.808	0.241	0.0381	0
CUAGAGCGAUCGUAUGCG	0.0162	0	0	0
CUGGAGCGAUAGCUUCAG	0.857	0.368	0.0296	0
CUGGAGCGAUUGUCUGAG	0.921	1.58	0.598	0.641
CUGGAGCGAUAGGAUUCG	0.840	0.257	0.0707	0
CUGGAGCGAUCGGCUGAG	0.792	0.343	0.0557	0
CUGGAGCGAUCGGGUAUG	0.711	0.294	0.0329	0
AUGGAGCGAUAGUGUCAG	0.0162	0	0	0
CUGGAGCGAUUGCUUUCG	0.937	0.389	0.0334	0
CUGGAGCGAUAGAUUGUG	1.08	0.282	0.0435	0
CUGGAGCGAUCGUUUCAG	0.937	0.270	0.0160	0
CUGGAGCGAUCGGGUAGG	0.824	0.313	0.0229	0
CUGGAGCGAUGGAAUAUG	0.857	0.289	0.0532	0
CUGGAGCGAUUGAUUGCG	0.873	0.267	0.0419	0
CUGGAGCGAUCGAGUUGG	0.840	0.216	0.0425	0
CUGGAGCGAUAGUGUCCG	0.695	0.332	0.0584	0
AUGGAGCGAUUGCUUUAG	0.0162	0	0	0
CUGGAGCGAUUGAAUUCG	1.08	0.510	0.0378	0
CUGGAGCGAUCGACUCCG	1.05	0.444	0.0381	0
CUGGAGCGAUCGCUUGCG	0.857	0.299	0.0585	0
CUGGAGCGAUUGCAUUCG	0.808	0.275	0.0334	0
CUGGAGCGAUCGUUUAAG	1.05	0.516	0.0378	0
CUGGAGCGAUGGGAUGGG	0.646	0.285	0.0626	0
CUGGAGCGAUGGGAUGCG	0.776	0.278	0.0435	0
CUGGAGCGAUGGAGUAUG	0.743	0.247	0.0488	0
CUGGAGCGAUCGCAUUGG	0.857	0.262	0.0273	0
CUGGAGCGAUCGGCUAAG	0.776	0.291	0.0435	0
CUGGAGCGAUGGGGUCUG	0.937	0.236	0.0160	0
CUGGAGCGAUGGGGUUGG	0.905	0.210	0.0540	0
CUGGAGCGAUCGAGUCAG	0.824	0.287	0.0685	0
CUGGAGCGAUGGCUUUUG	1.07	0.315	0.0435	0
CUGGAGCGAUGGGUUCAG	1.68	0.919	0.0557	0.0133
CAGGAGCGAUAGCUUAAG	0.0162	0	0	0
CUGGAGCGAUGGCAUCUG	0.760	0.287	0.0138	0
CAGGAGCGAUUGUUUUCG	0.0162	0	0	0
CAUGAGCGAUUGUUUCAG	0.0162	0	0	0
CUGGAGCGAUAGUCUUUG	0.889	1.51	0.485	0
CGGGAGCGAUAGGGUGCG	0.0162	0	0	0
CUGGAGCGAUGGUCUAGG	0.711	0.272	0.0287	0.502
CUGGAGCGAUAGCAUUCG	0.937	0.277	0.0372	0
CUGGAGCGAUCGUCUCCG	2.08	1.41	0.0532	0.00664
CUGGAGCGAUAGAUUCUG	0.986	0.268	0.0868	0.00664
CUGGAGCGAUGGGAUGAG	1.07	0.347	0	0
CUGGAGCGAUCGACUUGG	1.00	0.547	0.0441	0
CUGGAGCGAUUGCCUGCG	0.695	0.262	0.0282	0.231
CUGGAGCGAUUGGUUACG	0.921	0.271	0.0325	0
CUGGAGCGAUGGCAUCCG	0.646	0.217	0.0425	0
CUGGAGCGAUGGCGUUAG	1.00	0.547	0.0394	0

A selection of 6 entries from above:

sequence	pool	inoculated region	leaf margin	systemic leaves
CUGGAGCGAUCGAGUUGG	0.840	0.216	0.0425	0
CUGGAGCGAUCGGGUUCG	0.711	0.211	0.0213	0
CUGGAGCGAUUGCAUUCG	0.808	0.275	0.0334	0
CUGGAGCGAUCGUUUAAG	1.05	0.516	0.0378	0
CUGGAGCGAUUGAUUGCG	0.873	0.267	0.0419	0
CUGGAGCGAUGGAGUUCG	0.970	0.291	0.0604	0

Wild type was 10.2 per thousand in the pool and the most common sequence in every sample (inoculated region 285, 367, 312; leaf margin 785, 865, 782; systemic leaves 854, 898, 915).
Sequences that differ at fixed positions probably stem from PCR or sequencing errors, and defective variants can be carried along by functional ones.